Assay results: ChEMBL document CHEMBL1275243 (2010)

What was measured:
Bacillus anthracis [1] = assay: Antimicrobial activity against pXO1-positive and pXO2 negative Bacillus anthracis 34F2 assessed as change in fluorescence threshold cycle at 0.5 ug/ml after 4 hrs by real-time PCR viability assay relative to control
Bacillus anthracis [2] = assay: Antimicrobial activity against pXO1-positive and pXO2 negative Bacillus anthracis 34F2 assessed as change in fluorescence threshold cycle at 0.12 ug/ml after 4 hrs by real-time PCR viability assay relative to control
Bacillus anthracis [3] = assay: Antimicrobial activity against Bacillus anthracis A0102 assessed as change in fluorescence threshold cycle at 1 ug/ml after 4 hrs by real-time PCR viability assay relative to control
Bacillus anthracis [4] = assay: Antimicrobial activity against Bacillus anthracis A0149 assessed as change in fluorescence threshold cycle at 0.5 ug/ml after 4 hrs by real-time PCR viability assay relative to control
Bacillus anthracis [5] = assay: Antimicrobial activity against Bacillus anthracis A0419 assessed as change in fluorescence threshold cycle at 0.25 ug/ml after 4 hrs by real-time PCR viability assay relative to control
Bacillus anthracis [6] = assay: Antimicrobial activity against Bacillus anthracis 240 assessed as change in fluorescence threshold cycle at 0.25 ug/ml after 4 hrs by real-time PCR viability assay relative to control
Bacillus anthracis [7] = assay: Antimicrobial activity against Bacillus anthracis A0465 assessed as change in fluorescence threshold cycle at 1 ug/ml after 4 hrs by real-time PCR viability assay relative to control
Bacillus anthracis [8] = assay: Antimicrobial activity against Bacillus anthracis A0248 assessed as change in fluorescence threshold cycle at 8 ug/ml after 4 hrs by real-time PCR viability assay relative to control
Bacillus anthracis [9] = assay: Antimicrobial activity against Bacillus anthracis A0264 assessed as change in fluorescence threshold cycle at 0.25 ug/ml after 4 hrs by real-time PCR viability assay relative to control
Bacillus anthracis [10] = assay: Antimicrobial activity against Bacillus anthracis A0462 assessed as change in fluorescence threshold cycle at 0.12 ug/ml after 4 hrs by real-time PCR viability assay relative to control
Bacillus anthracis [11] = assay: Antimicrobial activity against Bacillus anthracis A0188 assessed as change in fluorescence threshold cycle at 0.5 ug/ml after 4 hrs by real-time PCR viability assay relative to control
Bacillus anthracis [12] = assay: Antimicrobial activity against pXO1-positive and pXO2 negative Bacillus anthracis 34F2 assessed as change in fluorescence threshold cycle at 0.06 ug/ml after 4 hrs by real-time PCR viability assay relative to control
Bacillus anthracis [13] = assay: Antimicrobial activity against Bacillus anthracis A0293 assessed as change in fluorescence threshold cycle at 2 ug/ml after 4 hrs by real-time PCR viability assay relative to control
Bacillus anthracis [14] = assay: Antimicrobial activity against Bacillus anthracis A0248 assessed as change in fluorescence threshold cycle at 0.25 ug/ml after 4 hrs by real-time PCR viability assay relative to control
Bacillus anthracis [15] = assay: Antimicrobial activity against Bacillus anthracis A0465 assessed as change in fluorescence threshold cycle at 2 ug/ml after 4 hrs by real-time PCR viability assay relative to control
Bacillus anthracis [16] = assay: Antimicrobial activity against Bacillus anthracis A0488 assessed as change in fluorescence threshold cycle at 0.25 ug/ml after 4 hrs by real-time PCR viability assay relative to control
Bacillus anthracis [17] = assay: Antimicrobial activity against Bacillus anthracis A0465 assessed as change in fluorescence threshold cycle at 4 ug/ml after 4 hrs by real-time PCR viability assay relative to control
Bacillus anthracis [18] = assay: Antimicrobial activity against Bacillus anthracis A0248 assessed as change in fluorescence threshold cycle at 0.12 ug/ml after 4 hrs by real-time PCR viability assay relative to control
Bacillus anthracis [19] = assay: Antimicrobial activity against Bacillus anthracis A0248 assessed as change in fluorescence threshold cycle at 0.06 ug/ml after 4 hrs by real-time PCR viability assay relative to control
Bacillus anthracis [20] = assay: Antimicrobial activity against Bacillus anthracis A03768 assessed as change in fluorescence threshold cycle at 2 ug/ml after 4 hrs by real-time PCR viability assay relative to control
Bacillus anthracis [21] = assay: Antimicrobial activity against Bacillus anthracis A0419 assessed as change in fluorescence threshold cycle at 0.5 ug/ml after 4 hrs by real-time PCR viability assay relative to control
Bacillus anthracis [22] = assay: Antimicrobial activity against Bacillus anthracis A0293 assessed as change in fluorescence threshold cycle at 0.5 ug/ml after 4 hrs by real-time PCR viability assay relative to control
Bacillus anthracis [23] = assay: Antimicrobial activity against Bacillus anthracis A0462 assessed as change in fluorescence threshold cycle at 2 ug/ml after 4 hrs by real-time PCR viability assay relative to control
Bacillus anthracis [24] = assay: Antimicrobial activity against Bacillus anthracis A0488 assessed as change in fluorescence threshold cycle at 16 ug/ml after 4 hrs by real-time PCR viability assay relative to control
Bacillus anthracis [25] = assay: Antimicrobial activity against Bacillus anthracis A0188 assessed as change in fluorescence threshold cycle at 0.25 ug/ml after 4 hrs by real-time PCR viability assay relative to control
Bacillus anthracis [26] = assay: Antimicrobial activity against Bacillus anthracis A0293 assessed as change in fluorescence threshold cycle at 8 ug/ml after 4 hrs by real-time PCR viability assay relative to control
Bacillus anthracis [27] = assay: Antimicrobial activity against Bacillus anthracis A0264 assessed as change in fluorescence threshold cycle at 4 ug/ml after 4 hrs by real-time PCR viability assay relative to control
Bacillus anthracis [28] = assay: Antimicrobial activity against Bacillus anthracis A0149 assessed as change in fluorescence threshold cycle at 1 ug/ml after 4 hrs by real-time PCR viability assay relative to control

Row | Compound | deltaCT (Bacillus anthracis [1]) | deltaCT (Bacillus anthracis [2]) | deltaCT (Bacillus anthracis [3]) | deltaCT (Bacillus anthracis [4]) | deltaCT (Bacillus anthracis [5]) | deltaCT (Bacillus anthracis [6]) | deltaCT (Bacillus anthracis [7]) | deltaCT (Bacillus anthracis [8]) | deltaCT (Bacillus anthracis [9]) | deltaCT (Bacillus anthracis [10]) | deltaCT (Bacillus anthracis [11]) | deltaCT (Bacillus anthracis [12]) | deltaCT (Bacillus anthracis [13]) | deltaCT (Bacillus anthracis [14]) | deltaCT (Bacillus anthracis [15]) | deltaCT (Bacillus anthracis [16]) | deltaCT (Bacillus anthracis [17]) | deltaCT (Bacillus anthracis [18]) | deltaCT (Bacillus anthracis [19]) | deltaCT (Bacillus anthracis [20]) | also measured
1 | O=C(O)c1cn(C2CC2)c2cc(N3CCNCC3)c(F)cc2c1=O [CIPROFLOXACIN] | 3.2 | 6.32 | 7.98 | 8.8 | 0.44 | 7.06 | 8.24 | 0.2 | 7.49 | 8.61 | 9.05 | 7.17 | 7.07 | 7.21 | 8.31 | 7.28 | 0.1 | 8.09 | 1.52 | 4.18 | deltaCT (Bacillus anthracis [21]): 8.9; deltaCT (Bacillus anthracis [22]): 9.19; deltaCT (Bacillus anthracis [23]): 5.59; deltaCT (Bacillus anthracis [24]): 6.83; deltaCT (Bacillus anthracis [25]): 0.87; deltaCT (Bacillus anthracis [26]): 7.86; deltaCT (Bacillus anthracis [27]): 6.94; deltaCT (Bacillus anthracis [28]): 2.53
2 | C[C@H]1c2cccc(O)c2C(=O)C2=C(O)[C@]3(O)C(=O)C(C(N)=O)=C(O)[C@@H](N(C)C)[C@@H]3[C@@H](O)[C@@H]21.O [DOXYCYCLINE] | 7.48 | 7.69 | 7.22 | 7.01 | 5.09 | 6.32 | 7.71 | 7.58 | 5.08 | 7.66 | 6.61 | 7.81 | 8.77 | 6.6 | 6.77 | 6.93 | 8.89 | 6.95 | 7.97 | 8.08 | deltaCT (Bacillus anthracis [21]): 6.87; deltaCT (Bacillus anthracis [22]): 7.38; deltaCT (Bacillus anthracis [23]): 8.39; deltaCT (Bacillus anthracis [24]): 0.56; deltaCT (Bacillus anthracis [25]): 5.16; deltaCT (Bacillus anthracis [26]): 8.39; deltaCT (Bacillus anthracis [27]): 7.19; deltaCT (Bacillus anthracis [28]): 8.1
